Data set [1] deals with ArcA-P (phosphorylated ArcA-His6) (Vibrio cholerae). The data set can be described thus: EMSA. Particulars: acetyl phosphate, ArcA: 10 mM Tris-HCl pH 8.0, 1 mM EDTA, 1 mM DTT, 50 mM KCl, 50 ug/mL BSA, 10% glycerol, 20 nM acetyl phosphate, CytR/CRP: 20 mM Tris-HCl pH 7.5, 50 mM KCl, recombinant protein, residues 1-238, protein details: His6 (pET-28a), probe letters rebuilt from the primers and the genome. In general terms: Mobility shift assays separate free from complexed probe on a gel.

Data set [2] has as its system CytR-His6 (Vibrio cholerae). The data set can be described thus: EMSA. The conditions noted are these: CytR 0-3.6 uM, ArcA: 10 mM Tris-HCl pH 8.0, 1 mM EDTA, 1 mM DTT, 50 mM KCl, 50 ug/mL BSA, 10% glycerol, 20 nM acetyl phosphate, CytR/CRP: 20 mM Tris-HCl pH 7.5, 50 mM KCl, recombinant protein, residues 1-335, protein details: His6 (pET-28a), probe letters rebuilt from the primers and the genome.

For at least one entry, the source does not settle the construct or the ends of the probe.

For the sequence “ATAAAGTCAGCTTGGGATCAAATTCCACCGGAATATCACAACTTGACTGCCGCTGAAGTGGGTATTTGATTTCTGTCAGAGAAACTTTTAACAGATATCACACCCAGCAAATGCTTGGTTGCCTTATTTGCTGATTTAAATAGAATAGAAGCCACTAACTAGCCAAGTGGCTTTTTTTGTTGCTGATTTCCACAAATTGTCTATCGTTTATTCAGGATCCAGAATAAAAATTAACACCTGAAAATGATGTTCAAACGGTGCAACCACAACTTCTTATAATAAAGGCAAATAATCTCACCT (double strand) [flrA promoter]”, the binding result in data set [1] (ArcA-P 0-2.4 uM) was “binds”.

Turning to “ATCGCGTTTTATAACGCTGATGTGTGTTAATTTTGTCAGCAAATTAATGCTTATTATCGTGATGAAAATCACAGTGACTATGCAAAATTTGTTAATCTCGCCGTAACTTTCTGTTCTGAATCCCTTAGACTATCGGTAAAATCCACTCAGTGAATCGTTTTCGTTAAGCCCAACGTCATGGTTATGGCCATGATTTCTAG (double strand) [cytR promoter]”, the binding result in data set [1] (ArcA-P 0-6 uM) was “binds”.

In the case of “GTCAAAAACGGAAATCCTATCAATGGCTGATGGAGAAAAAACAAACCGAACGTCAGTTATTACAAGAAAAACGCGAACAGAAACAGATGGATGAATTTTCGACCCTGATGTTCAATCGCCGCCGTCTCTCCTCATAAGGCGTAGTTTAAACGTCGTATCACGGCGCGAGCTTCTCCTCCTTGGATGCAATAAAACCTTCACTTGGCTTACTTCTTGCTAGATTTTCACAAAAGGGCGTTAACCCCAAGCTGTTACTGATGAGTTGATCTGCGCAGGTCATGCTCAGACTTCAATTCCACT (double strand) [fliK promoter]”, in data set [2], the binding result was “binds”.

Source of the values: article PMC8753867.
